Test results reported in patent US20060193771A1.

Key:
[1] = target: human CD30, native, expressed on cells (human); experiment: cell-based or functional assay
[2] = target: recombinant soluble CD30 (sCD30) produced in E. coli (human); experiment: affinity of the dsFv-PE38 immunotoxin; taken as BIAcore on sCD30
[3] = target: recombinant soluble CD30 (sCD30) produced in E. coli (human); experiment: affinity of the dsFv-PE38 immunotoxin, second day; taken as BIAcore on sCD30

Substance | Cytotoxicity (IC50, ng/mL), A431/CD30 cells [1] [ng/mL] | Cytotoxicity (IC50, ng/mL), Karpas 299 cells [1] [ng/mL] | Cytotoxicity (IC50, ng/mL), SUDHL1 cells [1] [ng/mL] | Cytotoxicity (IC50, ng/mL), SUDHL1 cells, second day [1] [ng/mL] | Cytotoxicity of dsFv immunotoxin (IC50, ng/ml), A431/CD30 cells [1] [ng/mL] | Kd [2] [µM] | Kd [3] [µM]
T13 dsFv-PE38 immunotoxin (from UniProt P11439 278-389) | 0.7 | 18 | 27 | 3 | 0.7 | 0.024 | –
T104 dsFv-PE38 immunotoxin (from UniProt P11439 278-389) | 14 | 230 | – | – | – | – | 0.07
T105 dsFv-PE38 immunotoxin (from UniProt P11439 278-389) | 0.6 | 17 | 8 | 2.8 | 0.6 | 0.012 | –
T405 dsFv-PE38 immunotoxin (from UniProt P11439 278-389) | 200 | > 100 | > 100 | – | – | 0.31 | –
T408 dsFv-PE38 immunotoxin (from UniProt P11439 278-389) | 80 | 340 | – | – | – | – | 0.33
T420 dsFv-PE38 immunotoxin (from UniProt P11439 278-389) | 1.5 | 53 | 18 | – | 1.5 | 0.058 | –
T427 dsFv-PE38 immunotoxin (from UniProt P11439 278-389) | 2.1 | 41 | 13 | – | – | 0.036 | –
